PubChem BioAssay AID1259414, Drosophila RNAi Screening Center | 2018

- Aim: 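Host factors increasing or decreasing Wolbachia levels in cultured fly cells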 (primary screen)
- System: Drosophila JW18 cells infected with Wolbachia
- Reagent: long dsRNA against Drosophila genes, 0.25 µg dsRNA per well of a 384-well plate
- Timing: 5 days
- Conditions: cells persistently infected with Wolbachia before knock-down; no added drug
- Read-out: 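Automated imaging of bacterial rRNA staining divided by host cell count, reported as plate-normalised robust z-score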
- Direction: Wolbachia per cell robust z: higher = more Wolbachia per host cell than the plate typical
- Active means: 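Hit when robust z is 1.5 or more, or -1.5 or less, in at least two of three replicates; excludes dsRNAs with several or no targets, genes not expressed in JW18 and well A1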
The screen tested about 24,000 reagents; this is a random part of those that have a named target and a result. Over the whole deposit, about 1,210 (5%) got an active call. 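Inactive calls also include excluded dsRNAs with several or no targets, genes unexpressed in JW18, and well A1, regardless of score.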 Names joined by + are all predicted targets of the reagent.

| gene | amplicon | Wolbachia per cell robust z, rep 1 | Wolbachia per cell robust z, rep 2 | Wolbachia per cell robust z, rep 3 | outcome |
| --- | --- | --- | --- | --- | --- |
| CG11403 | DRSC18532 | -0.326 | 2.32 | -0.296 | inactive |
| lncRNA:noe (long non-coding RNA:noe) | DRSC22747 | -1.81 | -1.46 | -0.518 | inactive |
| lncRNA:noe (long non-coding RNA:noe) | DRSC24139 | -1.69 | 0.543 | 0.338 | inactive |
| Syt14 (Synaptotagmin 14) | DRSC12331 | 0.222 | -1.93 | 0.000571 | inactive |
| CG7794 | DRSC16313 | -0.972 | -0.592 | -4.45 | inactive |
| bgm (bubblegum) | DRSC03495 | 1.65 | 2.57 | 0.205 | inactive |
| bgm (bubblegum) | DRSC27103 | -7.37 | -9.05 | 1.25 | inactive |
| CG6709 + Hez | DRSC10698 | -2.72 | -0.115 | -0.511 | inactive |
| CG43901 | DRSC19397 | -4.38 | 0.797 | -1.08 | inactive |
| CG43901 | DRSC22791 | 0.486 | -0.689 | -1.38 | inactive |
| CG43901 | DRSC27031 | -1.52 | 0.548 | 1.21 | inactive |
| CG43901 | DRSC29119 | -0.428 | -0.0737 | 0.115 | inactive |

In a second layout: results already given
CG11403 [DRSC18532]
- Wolbachia per cell robust z, rep 1: -0.326
- Wolbachia per cell robust z, rep 2: 2.32
- Wolbachia per cell robust z, rep 3: -0.296
- outcome: inactive

lncRNA:noe (long non-coding RNA:noe) [DRSC22747]
- Wolbachia per cell robust z, rep 1: -1.81
- Wolbachia per cell robust z, rep 2: -1.46
- Wolbachia per cell robust z, rep 3: -0.518
- outcome: inactive

lncRNA:noe (long non-coding RNA:noe) [DRSC24139]
- Wolbachia per cell robust z, rep 1: -1.69
- Wolbachia per cell robust z, rep 2: 0.543
- Wolbachia per cell robust z, rep 3: 0.338
- outcome: inactive

Syt14 (Synaptotagmin 14) [DRSC12331]
- Wolbachia per cell robust z, rep 1: 0.222
- Wolbachia per cell robust z, rep 2: -1.93
- Wolbachia per cell robust z, rep 3: 0.000571
- outcome: inactive

CG7794 [DRSC16313]
- Wolbachia per cell robust z, rep 1: -0.972
- Wolbachia per cell robust z, rep 2: -0.592
- Wolbachia per cell robust z, rep 3: -4.45
- outcome: inactive

The list goes on:
| gene | amplicon | Wolbachia per cell robust z, rep 1 | Wolbachia per cell robust z, rep 2 | Wolbachia per cell robust z, rep 3 | outcome |
| --- | --- | --- | --- | --- | --- |
| Lcp4 (Larval cuticle protein 4) | DRSC07458 | -0.991 | -0.677 | -2.24 | inactive |
| Lcp4 (Larval cuticle protein 4) | DRSC25194 | 0.601 | 0.227 | 0.691 | inactive |
| CG43339 | DRSC02466 | -0.333 | 0.183 | -0.381 | inactive |
| CG43339 | DRSC41462 | -0.1 | -0.583 | -0.155 | inactive |
| BubR1 (Bub1-related kinase) | DRSC04838 | -2.98 | -1.11 | -1 | inactive |
| CG7886 | DRSC16333 | -5.06 | 0.233 | 0.99 | inactive |
| Nacalpha (Nascent polypeptide associated complex protein alpha subunit) | DRSC07477 | 0.487 | 0.258 | 1.58 | inactive |
| Nacalpha (Nascent polypeptide associated complex protein alpha subunit) | DRSC25351 | -2.26 | 0.628 | 0.301 | inactive |
| mRpS33 (mitochondrial ribosomal protein S33) | DRSC14239 | 0.663 | -0.66 | -0.593 | inactive |
| CG16995 | DRSC00480 | -2.67 | -5.58 | -5.3 | inactive |
| CG13055 | DRSC09936 | 1.23 | 1.81 | 0.798 | inactive |
| CG13055 | DRSC25640 | 0.154 | 0.54 | 0.181 | inactive |
| CG6652 | DRSC10686 | -0.438 | 0.134 | -1.53 | inactive |
| CG6652 | DRSC28835 | 0.777 | -0.732 | -0.469 | inactive |
| CG7536 | DRSC20050 | -3.74 | 1.06 | -0.193 | inactive |
| Mnn1 (Menin 1) | DRSC03368 | -0.714 | -1.77 | -0.327 | inactive |
